A mixed list of measured activities; the numbers were collected in NIAID ChemDB.

All rows: whole-cell or culture tests; organism: Candida albicans; read-out: MIC

An empty or dashed field is not shown. Lines come from different laboratories, so protocols vary.

{"SMILES": "O=C1C=C(C=Cc2ccc(F)cc2)c2ccc(OCCCn3ccnc3)cc2C1", "strain or isolate": "ATCC 24433", "value": "12.5 µg/mL"}
{"SMILES": "Cc1ccc(Cn2cc(COC(=O)[C@@H](Cc3cn(Cc4ccc(C)cc4)nn3)NC(=O)OCC(C)(C)C)nn2)cc1", "strain or isolate": "MTCC 183", "value": "10.1 µM"}
{"SMILES": "COc1cc(O)c2c(c1)C(=O)c1c(cc3c(c1O)-c1c(cc(C)c(C(=O)NC(C)C(=O)O)c1O)[C@H](OC1OC(C)C(N(C)C/C=C/C(=O)O)C(OC4OCC(O)C(O)C4O)C1O)[C@H]3O)C2=O", "strain or isolate": "A9540", "value": "6.3 µg/mL"}
{"SMILES": "Clc1ccc(CC(Cn2ccnc2)c2ccc(Cl)cc2Cl)cc1", "value": "100 µg/mL"}
{"SMILES": "COc1cc(O)c2c(c1)C(=O)c1c(cc3c(c1O)-c1c(cc(C)c(C(=O)NC(C)C(=O)O)c1O)[C@H](OC1OC(C)C(N(C)CC(=O)O)C(OC4OCC(O)C(O)C4O)C1O)[C@H]3O)C2=O", "strain or isolate": "A9540", "value": "6.3 µg/mL"}
{"SMILES": "CC(C)(C)COC(=O)N[C@H](Cc1cn(CCc2ccccc2)nn1)C(=O)OCc1cn(CCc2ccccc2)nn1", "strain or isolate": "MTCC 183", "value": "20.2 µM"}
{"SMILES": "CC(O)Cn1sc2ccccc2c1=S", "value": "15 µg/mL"}
{"SMILES": "CC(C)C(=O)/C=C1\\Sc2ccccc2N1/C1=C/CCCCCCCCCC1", "strain or isolate": "ATCC 14053", "value": ">100 µg/mL"}
{"SMILES": "O=c1c2ccccc2sn1CCCO", "value": "10 µg/mL"}
{"SMILES": "CCC(C)n1ncn(-c2ccc(N3CCN(c4ccc(OC[C@H]5CO[C@](Cn6cncn6)(c6ccc(Cl)cc6Cl)O5)cc4)CC3)cc2)c1=O", "strain or isolate": "ATCC 10231", "value": "10 µg/mL"}
{"SMILES": "CN1C(=O)[C@]2(CO)NC(=O)[C@@]1(Cc1ccccc1)SS[C@@]1(CO)NC(=O)[C@](Cc3ccccc3)(NC1=O)SS2", "value": "50 µg/mL"}
{"SMILES": "CC(C)(C)c1ccc(C(=O)Nc2cc([N+](=O)[O-])ccc2O)cc1", "value": "12.5 µg/mL"}
{"SMILES": "OC(Cn1cncn1)(Cn1cncn1)c1ccc(F)cc1F", "strain or isolate": "1866", "value": "0.19 µg/mL"}
{"SMILES": "O=C(O[C@@H]1COC(=O)c2cc(O)c(O)c(O)c2-c2c(cc(O)c(O)c2O)C(=O)OC1C1OC(=O)c2cc(O)c(O)c(O)c2-c2c(O)c(O)c(O)c3c2C(=O)OC1[C@H]3O)c1cc(O)c(O)c(O)c1", "strain or isolate": "ATCC 64548", "method": "broth dilution", "value": "580 µg/mL"}
{"SMILES": "CCN1CCN(c2nc(Nc3ccc(C(=O)/C=C/c4cc(C)c(O)c(C)c4)cc3)nc3ccccc23)CC1", "strain or isolate": "MTCC 183", "method": "agar / visual reading", "value": "12.5 µg/mL"}
{"SMILES": "Cc1ccccc1C(Cc1c(Cl)cccc1Cl)Cn1ccnc1", "value": ">100 µg/mL"}
{"SMILES": "C[C@H]1[C@H](O)[C@@H](C)/C=C/C=C/C=C/C=C/C=C/C=C/C=C/[C@H](O[C@@H]2O[C@H](C)[C@@H](O)[C@H](N)[C@@H]2O)C[C@@H]2O[C@](O)(C[C@@H](O)C[C@@H](O)CC[C@H](O)[C@@H](O)C[C@@H](O)CC(=O)O[C@H]1C)C[C@H](O)[C@H]2C(=O)O", "strain or isolate": "ATCC 10231", "value": "10 µg/mL"}
{"SMILES": "C=C1CO[C@H]2[C@@H](C)OC(OC[C@@]34C[C@H]5[C@H](C)CC[C@@H]5[C@@]5(C=O)C[C@@H]3C=C(C(C)C)[C@@]45C(=O)O)C[C@@H]12", "strain or isolate": "Isolate CL-245 (fluconazole-resistant)", "value": "<0.01 µg/mL"}
{"SMILES": "COc1ccc(CC(Cn2ccnc2)c2ccc(Cl)cc2Cl)cc1", "value": "10 µg/mL"}
{"SMILES": "O=C(N[C@H](Cc1cn(Cc2cccc([N+](=O)[O-])c2)nn1)C(=O)OCc1cn(Cc2cccc([N+](=O)[O-])c2)nn1)OCc1ccccc1", "strain or isolate": "MTCC 183", "value": "8.9 µM"}
{"SMILES": "CCN1CCN(c2nc(NN=C3SCC(=O)N3c3ccccc3C)nc3ccccc23)CC1", "strain or isolate": "MTCC 183", "method": "agar / visual reading", "value": "200 µg/mL"}
{"SMILES": "O=C1C=C(C=Cc2ccccc2)c2ccc(OCCCn3ccnc3)cc2C1", "strain or isolate": "ATCC 24433", "value": "100 µg/mL"}
{"SMILES": "CCN1CCN(c2nc(Nc3ccc(C(=O)/C=C/c4ccccc4)cc3)nc3ccccc23)CC1", "strain or isolate": "MTCC 183", "method": "agar / visual reading", "value": "100 µg/mL"}
{"SMILES": "CCCCCCCCCCCCCC[C@@H]1CCCN1C", "strain or isolate": "IP4872", "value": "25 µg/mL"}
{"SMILES": "Nn1c(-c2ccc(Cl)cc2)nc2ccccc2c1=O", "strain or isolate": "ATCC 2091", "method": "agar", "value": "5.8 µg/mL"}
{"SMILES": "Nc1ccc(O)c(NC(=O)c2ccc(Cl)cc2)c1", "value": "25 µg/mL"}
{"SMILES": "O=C1CCCC2=C1C(c1ccc(F)cc1)N1C(=O)CSC1=N2", "strain or isolate": "AUCC-1720", "value": "100 µg/mL"}
{"SMILES": "CCCCN1/C(=C2\\CCN(Cc3ccccc3)CC2=O)Sc2ccccc21", "strain or isolate": "ATCC 14053", "value": "50 µg/mL"}
{"SMILES": "N#Cc1c(N)nc2c(c1-c1ccc(F)cc1)SC1=NC3=C(C(=O)CCC3)C(c3ccc(F)cc3)N12", "strain or isolate": "AUCC-1720", "value": "100 µg/mL"}
{"SMILES": "O=[n+]1c(Sc2ccccc2)c(CBr)n([O-])c2ccccc21", "strain or isolate": "Clinical isolate 17", "value": "15.6 µg/mL"}
{"SMILES": "CCCCCCCCCCCCCC(=O)NCCCN", "strain or isolate": "ATCC 18804", "method": "broth dilution", "value": "4 µg/mL"}
{"SMILES": "O=C(Cc1ccccc1)Nc1cc([N+](=O)[O-])ccc1O", "value": "12.5 µg/mL"}
{"SMILES": "COc1cc(O)c2c(c1)C(=O)c1c(cc3c(c1O)-c1c(cc(C)c(C(=O)NC(C)C(=O)O)c1O)[C@H](OC1OC(C)C(N(C)C(=O)c4ccccc4)C(OC4OCC(O)C(O)C4O)C1O)[C@H]3O)C2=O", "strain or isolate": "A9540", "value": ">100 µg/mL"}
{"SMILES": "COc1ccccc1C(=O)Nc1cc(Cl)ccc1O", "value": "12.5 µg/mL"}
{"SMILES": "Cc1ccccc1C(Cc1ccc(Cl)cc1)Cn1ccnc1", "value": ">100 µg/mL"}
{"SMILES": "O=C1C=C(C=Cc2ccc([N+](=O)[O-])cc2)c2ccc(OCCCn3ccnc3)cc2C1", "strain or isolate": "ATCC 24433", "value": "12.5 µg/mL"}
{"SMILES": "CS[C@@]1(Cc2ccccc2)NC(=O)[C@@](Cc2ccccc2)(SC)N(C)C1=O", "value": "50 µg/mL"}
{"SMILES": "O=c1c2ccccc2sn1CCO", "value": "10 µg/mL"}
{"SMILES": "O=C(Nc1cc([N+](=O)[O-])ccc1O)c1ccccc1", "value": "12.5 µg/mL"}
{"SMILES": "COc1ccc([C@@H]2COc3c(ccc(O)c3OC)C2)c(O)c1", "value": "10 µg/mL"}
{"SMILES": "CCCCCOc1ccc(-c2cc(-c3ccc(C(=O)N[C@H]4C[C@@H](O)[C@@H](O)NC(=O)[C@@H]5[C@@H](O)[C@@H](C)CN5C(=O)[C@H]([C@H](O)CC(N)=O)NC(=O)[C@H]([C@H](O)[C@@H](O)c5ccc(O)c(OS(=O)(=O)O)c5)NC(=O)[C@@H]5C[C@@H](O)CN5C(=O)[C@H]([C@@H](C)O)NC4=O)cc3)no2)cc1", "strain or isolate": "90028", "value": "0.0625 µg/mL"}
{"SMILES": "COc1cc(O)c2c(c1)C(=O)c1c(cc3c(c1O)-c1c(cc(C)c(C(=O)NC(C)C(=O)O)c1O)[C@H](OC1OC(C)C(N(C)C(=O)C(CO)(CO)CO)C(OC4OCC(O)C(O)C4O)C1O)[C@H]3O)C2=O", "strain or isolate": "A9540", "value": ">100 µg/mL"}
{"SMILES": "O=[N+]([O-])c1ccc(Cc2nc3cc([N+](=O)[O-])ccc3o2)cc1", "value": "12.5 µg/mL"}
{"SMILES": "CC(O)CN=c1ssc2ccccc12", "value": "15 µg/mL"}
{"SMILES": "CCOc1cc2c(cc1F)n([O-])c(C)c(S(=O)(=O)c1ccccc1)[n+]2=O", "strain or isolate": "Clinical isolate 20", "value": "7.8 µg/mL"}
{"SMILES": "O=[N+]([O-])c1ccc2oc(-c3ccc(Cl)cc3)nc2c1", "value": "12.5 µg/mL"}
{"SMILES": "CC(C)(C)COC(=O)N[C@H](Cc1cn(Cc2ccccc2)nn1)C(=O)OCc1cn(Cc2ccccc2)nn1", "strain or isolate": "MTCC 183", "value": "21.2 µM"}
{"SMILES": "COc1ccc(-c2cc(=O)c3c(O)c([C@@H]4O[C@H](CO)[C@@H](O)[C@H](O)[C@H]4O)c(O)cc3o2)cc1O", "strain or isolate": "ATCC 18804", "method": "broth dilution", "value": "125 µg/mL"}
{"SMILES": "CCCCCCC(=O)/C=C1\\Sc2ccccc2N1C1=CCCCCC1", "strain or isolate": "ATCC 10231", "value": ">100 µg/mL"}
{"SMILES": "CCN1CCN(c2nc(Nc3ccc(C(=O)/C=C/c4ccco4)cc3)nc3ccccc23)CC1", "strain or isolate": "MTCC 183", "method": "agar / visual reading", "value": "3.12 µg/mL"}
{"SMILES": "Cc1c(Sc2ccccc2)[n+](=O)c2cc(C(F)(F)F)ccc2n1[O-]", "strain or isolate": "Clinical isolate 23", "value": "15.6 µg/mL"}
{"SMILES": "CCC(C)C(N)C(=O)N[C@H]1[C@@H](O)[C@H](n2cnc3c(N)ncnc32)O[C@@H]1C(=O)O", "strain or isolate": "FP633", "value": "0.4 µg/mL"}
{"SMILES": "CCN1CCN(c2nc(Nc3ccc(C(=O)/C=C/c4ccc(OC)c(OC)c4)cc3)nc3ccccc23)CC1", "strain or isolate": "MTCC 183", "method": "agar / visual reading", "value": "100 µg/mL"}
{"SMILES": "Clc1ccc(COC(Cn2ccnc2)c2ccc(Cl)cc2Cl)c(Cl)c1", "strain or isolate": "ATCC 10231", "value": "5 µg/mL"}
{"SMILES": "CCCCCCCC/C=C\\CCCCCCCC(=O)NCCCN", "strain or isolate": "ATCC 18804", "method": "broth dilution", "value": "128 µg/mL"}
{"SMILES": "S=C(Nc1ccccc1)Nc1nc(N2CCN(c3ccccc3)CC2)c2ccccc2n1", "strain or isolate": "MTCC 183", "method": "agar / visual reading", "value": "3.12 µg/mL"}
{"SMILES": "Cc1ccc(Cn2cc(COC(=O)[C@@H](Cc3cn(Cc4ccc(C)cc4)nn3)NC(=O)OCc3ccccc3)nn2)cc1", "strain or isolate": "MTCC 183", "value": "19.6 µM"}
{"SMILES": "CCN1CCN(c2nc(NC(=S)N3CCN(C)C(c4ccccc4)C3)nc3ccccc23)CC1", "strain or isolate": "MTCC 183", "method": "agar / visual reading", "value": "400 µg/mL"}
{"SMILES": "CCC(=O)/C=C1\\Sc2ccccc2N1C1CCCCCCC1", "strain or isolate": "ATCC 14053", "value": ">100 µg/mL"}
{"SMILES": "CC(C)(C)COC(=O)N[C@H](Cc1cn(Cc2cccc([N+](=O)[O-])c2)nn1)C(=O)OCc1cn(Cc2cccc([N+](=O)[O-])c2)nn1", "strain or isolate": "MTCC 183", "value": "18.4 µM"}
{"SMILES": "O=C(Cc1ccc(Br)cc1)Nc1cc([N+](=O)[O-])ccc1O", "value": "12.5 µg/mL"}
{"SMILES": "CC(CO)(CO)N=c1ssc2ccccc12", "value": "20 µg/mL"}
{"SMILES": "Clc1cc(Cl)c(OCC#CI)cc1Cl", "value": "6.25 µg/mL"}

The first 6 rows once more:

| SMILES | strain or isolate | method | value |
|---|---|---|---|
| O=C1C=C(C=Cc2ccc(F)cc2)c2ccc(OCCCn3ccnc3)cc2C1 | ATCC 24433 |  | 12.5 µg/mL |
| Cc1ccc(Cn2cc(COC(=O)[C@@H](Cc3cn(Cc4ccc(C)cc4)nn3)NC(=O)OCC(C)(C)C)nn2)cc1 | MTCC 183 |  | 10.1 µM |
| COc1cc(O)c2c(c1)C(=O)c1c(cc3c(c1O)-c1c(cc(C)c(C(=O)NC(C)C(=O)O)c1O)[C@H](OC1OC(C)C(N(C)C/C=C/C(=O)O)C(OC4OCC(O)C(O)C4O)C1O)[C@H]3O)C2=O | A9540 |  | 6.3 µg/mL |
| Clc1ccc(CC(Cn2ccnc2)c2ccc(Cl)cc2Cl)cc1 |  |  | 100 µg/mL |
| COc1cc(O)c2c(c1)C(=O)c1c(cc3c(c1O)-c1c(cc(C)c(C(=O)NC(C)C(=O)O)c1O)[C@H](OC1OC(C)C(N(C)CC(=O)O)C(OC4OCC(O)C(O)C4O)C1O)[C@H]3O)C2=O | A9540 |  | 6.3 µg/mL |
| CC(C)(C)COC(=O)N[C@H](Cc1cn(CCc2ccccc2)nn1)C(=O)OCc1cn(CCc2ccccc2)nn1 | MTCC 183 |  | 20.2 µM |